Results of unrelated studies side by side (data: NIAID ChemDB).

Common to all: growth or infection tests; species: Herpes simplex virus 1; read-out: EC50

Blank or dashed fields: not listed here. ECn: concentration that inhibits the pathogen or its effect by n%. Rows are shuffled and stem from different studies.

| smiles | strain | cell line | method | value |
|---|---|---|---|---|
| Nc1nc2c(ncn2[C@@H]2O[C@@H](CO)[C@H](O)[C@H]2O)c(=O)[nH]1 | F | VERO B | cytopathic effect | >1000 µM |
| CS(=O)(=O)NC[C@H]1O[C@@H](n2cc(I)c(=O)[nH]c2=O)C[C@@H]1O | - | BHK | plaque count | >0.2 µM |
| Nc1ncc2c(ncn2COC(CO)CO)n1 | KOS PFA-resistant | HEL | cytopathic effect | 0.8 µg/mL |
| CC(C)(C)C(=O)OCOC(=O)CN(CC(=O)OCOC(=O)C(C)(C)C)P(=O)(OC[C@H]1O[C@@H](n2cc(/C=C/Br)c(=O)[nH]c2=O)C[C@@H]1O)Oc1ccccc1 | KOS | HEL | - | 1.1 µM |
| Cn1cc(NC(=O)c2cc(NC(=O)CN=C(N)N)cn2C)c(C(=O)NCCC(=N)N)c1 | KOS | PRK | cytopathic effect | ≥40 µg/mL |
| Nc1ncnc2c1ncn2C[C@@H](CO)OCP(=O)(O)O | TK- | Primary rabbit kidney cells | - | 2 µg/mL |
| O=c1[nH]c(=O)n([C@H]2C[C@H](O)[C@@H](CO)O2)cc1/C=C/Br | VMW1837 (TK-) | E6SM | cytopathic effect | 70 µg/mL |
| Cc1cn([C@@H]2O[C@H](CO)[C@@H](O)[C@@H]2O)c(=O)[nH]c1=O | KOS PMEA-resistant | HEL | cytopathic effect | 0.37 µg/mL |
| Nc1nc(=S)n([C@H]2C[C@H](O)[C@@H](CO)O2)cc1I | TK- | MRC-5 | plaque count | >272 µM |
| CN[C@@H]1[C@@H](O[C@H]2O[C@H](CO)[C@@H](N)[C@H](O)[C@H]2O)O[C@H]2C[C@@H](N)C(O[C@H]3[C@H](O)[C@@H](O)[C@H](N)C[C@@H]3N)O[C@@H]2[C@@H]1O | KOS | HeLa | cytopathic effect | >200 µg/mL |
| CCCCC(=O)NC[C@H]1O[C@@H](n2cc(I)c(=O)[nH]c2=O)C[C@@H]1O | - | BHK | plaque count | >0.7 µM |
| O=c1[nH]c(=S)n([C@H]2C[C@H](O)[C@@H](CO)O2)cc1F | KOS | MRC-5 | plaque count | 0.61 µM |
| Nc1nc(N)c2ncn(CC(CO)OCP(=O)(O)O)c2n1 | - | Primary rabbit kidney cells | - | 10 µg/mL |
| Nc1ccn([C@@H]2C[C@H](CO)[C@@H](O)[C@H]2O)c(=O)n1 | KOS | PRK | cytopathic effect | 100 µg/mL |
| COC(=O)[C@H](C)NP(=O)(OC[C@H]1C/C1=C\n1cnc2c(N)nc(N)nc21)Oc1ccccc1 | - | BSC-1 | ELISA | >100 µM |
| Cc1cc(-c2ccc(N=Nc3c(S(=O)(=O)O)cc4cc(S(=O)(=O)O)cc(N)c4c3O)c(C)c2)ccc1N=Nc1c(S(=O)(=O)O)cc2cc(S(=O)(=O)O)cc(N)c2c1O | KOS | HeLa | cytopathic effect | 15 µM |
| O=C1CCC(c2ccccc2)C(=O)N1CCCN1CCN(c2ccccc2O)CC1 | - | VERO 76 | MTT | >100 µM |
| Nc1nc(N)c2ncn(CCOCP(=O)(O)O)c2n1 | TK- | Primary rabbit kidney cells | - | 1 µg/mL |
| Nc1ncnc2c1ccn2[C@@H]1O[C@H](CO)[C@@H](O)[C@@H]1O | S-148 | BSC-1 | plaque count | 320 µM |
| O=C(CCCl)NN1CC[N+]2(CC1)CC[N+]1(CCN(NC(=O)CCCl)CC1)CC2 | - | GMK | cytopathic effect | 66.1 µg/mL |
| N[C@H]1[C@@H](O[C@@H]2[C@@H](O)[C@H](O[C@H]3OC[C@@H](O)[C@H](O)[C@H]3N)[C@@H](N)C[C@H]2N)O[C@H](CO)[C@@H](O)[C@@H]1O | KOS | HeLa | cytopathic effect | >100 µg/mL |
| NC(=O)c1cn([C@@H]2O[C@H](CO)[C@@H](O)[C@@H]2O)c2ncnc(N)c12 | S-148 | BSC-1 | plaque count | 16 µM |
| CC(C)CC(=O)NC[C@H]1O[C@@H](n2cc(I)c(=O)[nH]c2=O)C[C@@H]1O | - | BHK | plaque count | >0.5 µM |
| Nc1nccc2c1ncn2[C@H]1C[C@H](O)[C@@H](CO)O1 | KOS | HEL | - | >100 µM |
| O=C1OCC2OC(O)C(O)C(O)C2OC(=O)c2cc(O)c(O)c(O)c2-c2c(O)c(O)c3oc(=O)c4c(c(O)c(O)c5oc(=O)c2c3c54)-c2c1cc(O)c(O)c2O | - | A549 | plaque count | 21.33 µM |
| O=C1CCC(c2ccccc2)C(=O)N1CCCCN1CCN(c2ccccc2O)CC1 | - | VERO 76 | MTT | >100 µM |
| NC[C@H]1O[C@@H](n2ccc(=O)[nH]c2=O)C[C@@H]1O | - | BHK | plaque count | >2 µM |
| Cc1cn([C@H]2C[C@@H](O)[C@H](CO)O2)c(=O)[nH]c1=O | F | VERO B | cytopathic effect | >1000 µM |
| CC(=O)NC[C@H]1O[C@@H](n2cc(C)c(=O)[nH]c2=O)C[C@@H]1O | - | BHK | plaque count | >1.8 µM |
| Nc1ncnc2c1ncn2C[C@H](O)CO | B2006 (TK-) | PRK | cytopathic effect | >100 µg/mL |
| Nc1nc2c(ncn2OC(/C=C/P(=O)(O)O)CO)c(=O)[nH]1 | SC16 | MRC-5 | cytopathic effect | >300 µM |
| OC(CCl)CN1CC[N+]2(CC1)CC[N+]1(CCN(CC(O)CCl)CC1)CC2 | - | GMK | cytopathic effect | 62.47 µg/mL |
| O=c1ccn([C@@H]2O[C@@H](CO)[C@H](O)[C@H]2O)c(=O)[nH]1 | F | VERO B | cytopathic effect | >1000 µM |
| COC(=O)[C@H](C)NP(=O)(OC[C@@H]1C[C@]12C[C@@H]2n1cnc2c(N)ncnc21)Oc1ccccc1 | - | BSC-1 | ELISA | 7 µM |
| Nc1ncnc2c1ncn2C[C@H]1COP(=O)(O)CO1 | - | Primary rabbit kidney cells | - | 2 µg/mL |
| Nc1nc(Cl)c2ncn(C[C@H]3CC[C@@H](CO)C3)c2n1 | KOS | E6SM | cytopathic effect | >1 µg/mL |
| Nc1nc2c(ncn2[C@H]2C[C@@H](O)[C@H](CO)O2)c(=O)[nH]1 | F | VERO B | cytopathic effect | >1000 µM |
| NC(=NCCC[C@H](N)C(=O)O)N[C@@H](CC(=O)O)C(=O)O | KOS | HeLa | cytopathic effect | >200 µg/mL |
| CC(C)(C)C(=O)OCOC(=O)CN(CC(=O)OCOC(=O)C(C)(C)C)P(=O)(OC[C@H]1O[C@@H](n2cnc3c(N)ccnc32)C[C@@H]1O)Oc1ccccc1 | KOS | HEL | - | >20 µM |
| O=C(O)C[C@@H]1C(=O)O[C@H]2[C@@H]3OC(=O)c4cc(O)c(O)c(O)c4-c4c(cc(O)c(O)c4O)C(=O)OC[C@H]2O[C@@H](OC(=O)c2cc(O)c(O)c(O)c2)[C@@H]3OC(=O)c2cc(O)c(O)c3c2[C@H]1[C@H](O)C(=O)O3 | - | A549 | plaque count | 17.02 µM |
| Cc1cn([C@H]2C[C@H](O)[C@@H](CN=[N+]=[N-])O2)c(=O)[nH]c1=O | - | BHK | plaque count | >1 µM |
| O=[N+]([O-])c1c(Cl)ncnc1N1CC[N+]2(CC1)CC[N+]1(CCN(c3ncnc(Cl)c3[N+](=O)[O-])CC1)CC2 | - | GMK | cytopathic effect | 0.9 µg/mL |
| Nc1ccn(C[C@@H](CO)OCP(=O)(O)O)c(=O)n1 | KOS | HEL | - | 2 µM |
| O=c1[nH]c(=S)n([C@H]2C[C@H](O)[C@@H](CO)O2)cc1I | KOS | RPMI8226 | plaque count | 1.06 µM |
| C[C@H](Cc1ccc(O)c(O)c1)[C@@H](C)Cc1ccc(O)c(O)c1 | 1 | - | - | 4.12 µg/mL |
| Cc1cccc2c1OP(=O)(OC[C@@H]1C=C[C@H](n3cnc4c(NC5CC5)nc(N)nc43)C1)OC2 | TK-deficient acyclovir-resistant | E6SM | cytopathic effect | 5.6 µg/mL |
| O=C1CCC(c2ccccc2)C(=O)N1CCCN1CCN(c2ncccn2)CC1 | - | VERO 76 | MTT | >98 µM |
| Cc1ncc([N+](=O)[O-])n1CCO | KOS | HeLa | cytopathic effect | >200 µg/mL |
| O=c1[nH]c(=O)n([C@H]2C[C@H](O)[C@@H](CO)O2)cc1/C=C/Br | KOS | PRK | cytopathic effect | 0.04 µg/mL |
| COC(=O)[C@H](C)NP(=O)(OC[C@H]1C/C1=C/n1cnc2c(OC)nc(N)nc21)Oc1ccccc1 | - | BSC-1 | ELISA | 2 µM |
| O=c1ccc2cc(O[C@@H]3O[C@H](CO)[C@@H](O)[C@H](O)[C@H]3O)c(O)cc2o1 | KOS | HeLa | cytopathic effect | >200 µg/mL |
| O=[N+]([O-])c1c(Cl)ncnc1NN1CC[N+]2(CC1)CC[N+]1(CCN(Nc3ncnc(Cl)c3[N+](=O)[O-])CC1)CC2 | - | GMK | cytopathic effect | 7.71 µg/mL |
| Nc1ncnc2c1ncn2C[C@@H](CO)OCP(=O)(O)O | KOS GCV-resistant | HEL | cytopathic effect | 0.1 µg/mL |
| COc1ncnc(N2CC[N+]3(CC2)CC[N+]2(CCN(c4ncnc(OC)c4[N+](=O)[O-])CC2)CC3)c1[N+](=O)[O-] | - | GMK | cytopathic effect | 35.83 µg/mL |
| Nc1nc2c(ncn2COCCO)c(=O)[nH]1 | KOS | E6SM | cytopathic effect | 0.28 µg/mL |
| O=c1[nH]cnc2c1ncn2CCOCP(=O)(O)O | - | Primary rabbit kidney cells | - | >400 µg/mL |
| Cc1nc(N2CC[N+]3(CC2)CC[N+]2(CCN(c4nc(C)nc5c4no[n+]5[O-])CC2)CC3)c2c(no[n+]2[O-])n1 | - | GMK | cytopathic effect | 51.77 µg/mL |
| COC(=O)[C@H](C)NP(=O)(OCC1C/C1=C/n1cnc2c(N)ncnc21)Oc1ccccc1 | - | BSC-1 | ELISA | 25 µM |
| Nc1nc2c(ncn2CCC(CO)CO)c(=O)[nH]1 | KOS PFA-resistant | HEL | cytopathic effect | 0.11 µg/mL |
| CSc1nc(Cl)c([N+](=O)[O-])c(N2CC[N+]3(CC2)CC[N+]2(CCN(c4nc(SC)nc(Cl)c4[N+](=O)[O-])CC2)CC3)n1 | - | GMK | cytopathic effect | 3.49 µg/mL |
| COC[C@H](Cc1ccc(OC)c(OC)c1)[C@@H](COC)Cc1ccc2c(c1)OCO2 | 1 | - | - | 53.42 µg/mL |
| COC(=O)OC1CCC2(C)C(=CCC3C2CCC2(C)C(C(C)CCCC(C)C)CCC32)C1 | KOS | HeLa | cytopathic effect | >200 µg/mL |
| O=c1[nH]cnc(N2CC[N+]3(CC2)CC[N+]2(CCN(c4nc[nH]c(=O)c4[N+](=O)[O-])CC2)CC3)c1[N+](=O)[O-] | - | GMK | cytopathic effect | 1.08 µg/mL |
| Nc1ncnc2c1ncn2CCOCP(=O)(O)O | - | Primary rabbit kidney cells | - | 7 µg/mL |
| Nc1nc2c(ncn2CC/C=C/P(=O)(O)O)c(=O)[nH]1 | SC16 | MRC-5 | cytopathic effect | >300 µM |

Again, the opening 7 rows:

smiles | strain | cell line | method | value
Nc1nc2c(ncn2[C@@H]2O[C@@H](CO)[C@H](O)[C@H]2O)c(=O)[nH]1 | F | VERO B | cytopathic effect | >1000 µM
CS(=O)(=O)NC[C@H]1O[C@@H](n2cc(I)c(=O)[nH]c2=O)C[C@@H]1O | - | BHK | plaque count | >0.2 µM
Nc1ncc2c(ncn2COC(CO)CO)n1 | KOS PFA-resistant | HEL | cytopathic effect | 0.8 µg/mL
CC(C)(C)C(=O)OCOC(=O)CN(CC(=O)OCOC(=O)C(C)(C)C)P(=O)(OC[C@H]1O[C@@H](n2cc(/C=C/Br)c(=O)[nH]c2=O)C[C@@H]1O)Oc1ccccc1 | KOS | HEL | - | 1.1 µM
Cn1cc(NC(=O)c2cc(NC(=O)CN=C(N)N)cn2C)c(C(=O)NCCC(=N)N)c1 | KOS | PRK | cytopathic effect | ≥40 µg/mL
Nc1ncnc2c1ncn2C[C@@H](CO)OCP(=O)(O)O | TK- | Primary rabbit kidney cells | - | 2 µg/mL
O=c1[nH]c(=O)n([C@H]2C[C@H](O)[C@@H](CO)O2)cc1/C=C/Br | VMW1837 (TK-) | E6SM | cytopathic effect | 70 µg/mL